Several values for one entry are separate records, joined by “and”; a condition that tells them apart may be missing. Equal entries are not always repeated.
Tested on: regulatory CUG of SARS-CoV-2 ORF7a 5'UTR in HEK293T cells
Assay: SARS-CoV-2 ORF7a 5'UTR CUG (Renilla) / AUG (firefly) reporter ratio
Format: cell-based
Details: for AUG, normalized to DMSO, Average(%): RL - ATG reporter

SMILES: COc1cc2nccc(Oc3ccc(NC(=O)Nc4cc(C)on4)c(Cl)c3)c2cc1OC
- normalized to DMSO: 0.442 and 0.377 and 0.424
- AUG, normalized to DMSO, Average(%) (0.5 uM, average of 4 repeats): 95.29%
- AUG, normalized to DMSO, Average(%) (10 uM, average of repeats): 90.56%

— PMC12216609, “Inhibitors of eIF1A-ribosome interaction unveil uORF-dependent regulation of translation initiation and antitumor and antiviral effects” (The EMBO Journal, 2025)
